Compound potency records, mixed from different reports. Data source: NIAID ChemDB in PubChem.

Shared fields: whole-cell or culture tests; organism: Hepatitis C virus; measure: EC50

a–b is a range or a potency band. ECn is the concentration giving n% inhibition of infection, replication or growth. Blank or dashed fields: not listed here. Neighbouring rows are from separate reports.

SMILES | cells | strain or isolate | conditions | method | value
CCCCCCCCCCCCNc1nc(=O)c2nc(Br)n(Cc3ccc(OC)cc3)c2c(=O)[nH]1 | Huh7 |  |  | replicon | >10 µM
CCC[C@H](NC(=O)[C@@H]1C2CCCC2CN1C(=O)[C@@H](NC(=O)[C@@H](NC(=O)c1cnccn1)C1CCCCC1)C(C)(C)C)C(=O)C(=O)N[C@@H](C)C(C)C | Huh7 |  |  | replicon | 0.86 µM
NC(=S)NCc1ccc(OC(F)(F)F)cc1 | Huh7 |  |  | replicon | <1 µM
CC1(C)CC(=O)C2=C(C1)Nc1ccc(C(=O)c3ccccc3)cc1NC2c1ccccc1Cl | Huh7 |  |  | replicon | 2.636 µM
CC1(C)CCc2c(C(=O)OCc3ccc([N+](=O)[O-])cc3)c(O)c3ccccc3c2O1 | Huh7 | GT1b |  | PCR | 0.5–0.8 µg/mL
C[C@@]1(O)[C@H](O)[C@@H](CO)O[C@H]1n1cc(C#CCO)c2c(N)ncnc21 | ET |  |  | replicon | >50 µM
CC1(C)CCc2c(C(=O)Oc3ccc([N+](=O)[O-])cc3)c(O)c3ccccc3c2O1 | Huh7 | GT1b |  | PCR | 7 µg/mL
CCCCCOc1ccc(NC(N)=S)cc1 | Huh7 |  |  | replicon | <1 µM
C=CCCCS(=O)(=O)NC(=O)[C@H](CCC)NC(=O)[C@@H](NC(=O)[C@@H](NC(=O)OC(C)(C)C)C(C)(C)C)c1ccc(Oc2cc(-c3ccccc3)nc3cc(OC)ccc23)c(C=C)c1 |  | 1b replicon |  | luciferase / replicon | >10 µM
CCCCCCCCCCNc1nc(=O)c2nc(Br)n(Cc3ccc(OC)cc3)c2c(=O)[nH]1 | Huh7 |  |  | replicon | <10 µM
O=C(NCCCc1ccccc1)c1nc2ccccc2c(=O)n1O | Ava5 | 1b |  | replicon | 17.5 µM
CCC(C)Oc1ccccc1C1C2=C(CC(c3ccc(OC)c(OC)c3)CC2=O)Nc2ccccc2N1C(C)=O | Huh7 |  |  | replicon | 0.599 µM
CCCCCCCCNc1nc(=O)c2nc(Br)n(Cc3ccc(OC)cc3)c2c(=O)[nH]1 | Huh7 |  |  | replicon | >10 µM
CCN(C(=O)c1ccc(C)cc1)c1cc(-c2ccccc2)sc1C(=O)O | Huh7 |  |  | replicon | 10 µM
CC(=O)Nc1ccc(-c2ccc3nc(N)nc(N4CCCCC4)c3c2)cc1 | Huh7 |  |  |  | 1–10 µM
CC(C)C(=O)N1c2ccccc2NC2=C(C(=O)CC(C)(C)C2)C1c1ccc(Br)s1 | Huh7 |  |  | replicon | 4.438 µM
CCCCOC(=O)/C=C/c1ccc(O)c(O)c1 | Huh7 | 2a |  | luciferase | 13.5 µM
C=Cc1cc([C@H](NC(=O)[C@@H](NC(=O)OC(C)(C)C)C(C)(C)C)C(=O)N[C@@H](CCC)C(=O)NS(=O)(=O)c2ccccc2C=C)ccc1Oc1cc(-c2ccccc2)nc2cc(OC)ccc12 |  | 1b replicon |  | luciferase / replicon | >10 µM
NC(=S)Nc1cccc(OCc2ccc(-c3ccccc3)cc2)c1 | Huh7 |  |  | replicon | <1 µM
C[C@@]1(O)[C@H](O)[C@@H](CO)O[C@H]1n1cnc2c(N)ncnc21 |  | 1b |  | luciferase / reporter gene | 0.4468 µM
Nc1cc(-c2cc(=O)c3c(O)cc(O)cc3o2)ccc1N1CCN(c2ccccn2)CC1 | Huh-Luc-Neo | 1b |  | luciferase / reporter gene | >20 µM
O=C(O)c1ccc2c(C3CCCCC3)c3n(c2c1)CCCc1ocnc1-3 |  | 1b |  |  | 10 µM
CCC[C@H](NC(=O)[C@@H]1[C@H]2CCC[C@H]2CN1C(=O)[C@@H](NC(=O)[C@@H](NC(=O)c1cnccn1)C1CCCCC1)C(C)(C)C)C(=O)C(=O)N[C@@H](C)Cc1ccccc1 | Huh7 |  |  | replicon | 0.11 µM
O=C1CC(c2ccccc2)CC2=C1C(c1ccc(Cl)cc1)Nc1ccc(C(=O)c3ccccc3)cc1N2 | Huh7 |  |  | replicon | 4.517 µM
CC(C)C(=O)N1c2cccc(O)c2NC2=C(C(=O)CC(C)(C)C2)[C@@H]1c1ccc(OCc2ccccc2)cc1F |  | 1b |  | luciferase / reporter gene / replicon | 0.68 µM
NC(=S)Nc1cccc(NCC2CCCCC2)c1 | Huh7 |  |  | replicon | <1 µM
CC(=O)Oc1c(C(=O)OCc2ccccc2)c2c(c3ccccc13)OC(C)(C)CC2 | Huh7 | GT1b |  | PCR | 0.5–1 µg/mL
CC(C)CC(=O)N1c2ccccc2NC2=C(C(=O)CC(C)(C)C2)C1c1ccc(Cl)cc1 | Huh7 |  |  | replicon | 19.5 µM
CC(C)CN(C[C@@H](O)[C@H](Cc1ccccc1)NC(=O)O[C@H]1CCOC1)S(=O)(=O)c1ccc(N)cc1 |  | 1b |  | luciferase / reporter gene | 0.3103 µM
O=C(O)c1ccc2c(C3CCCCC3)c3n(c2c1)CCOc1cccnc1-3 |  | 1b |  |  | >10 µM
COc1cccc(Cc2cccc(NC(N)=S)c2)c1 | Huh7 |  |  | replicon | <1 µM
CC(=O)Nc1ccc(-c2ccc3nc(N)nc(N4CCN(C)CC4)c3c2)cc1 | Huh7 |  |  |  | 1–10 µM
COc1cc2c(=O)c(C(=O)c3ccc(C)cc3)cn(Cc3ccc(C(C)(C)C)cc3)c2cc1OC |  |  |  | replicon | 11.7 µM
NC(=S)Nc1ccc(N2CCc3ccccc3C2)cc1 | Huh7 |  |  | replicon | <1 µM
CCCNC(=S)N=Nc1c(O)[nH]c2ccccc12 |  | TYPE 2 |  | plaque count | >25 µM
COc1ccc(-c2ccc3nc(N)nc(Nc4cccc(Br)c4)c3c2)cc1OC | Huh7 |  |  |  | <0.3 µM
CC1(C)CC(=O)C2=C(C1)Nc1c(O)cccc1N(C(=O)c1ccccc1)C2c1ccc(Cl)cc1Cl |  | 1b |  | luciferase / reporter gene / replicon | 5.7 µM
Nc1cc(-c2cc(=O)c3c(O)cc(O)cc3o2)ccc1N1CCN(c2ncccn2)CC1 | Huh-Luc-Neo | 1b |  | luciferase / reporter gene | >20 µM
C[C@@]1(O)[C@H](O)[C@@H](CO)O[C@H]1n1cc(C#CCN)c2c(N)ncnc21 | ET |  |  | replicon | >50 µM
Cc1nc(N)c2ncn([C@H]3O[C@@H](CO)[C@H](O)[C@@H]3O)c2n1 |  |  |  |  | 0.23 µM
COc1cc(O)c2c(=O)cc(-c3ccc(N4CCN(c5ccccn5)CC4)c(N)c3)oc2c1 | Huh-Luc-Neo | 1b |  | luciferase / reporter gene | >20 µM
CCCC(NC(=O)[C@@H]1C2CCCC2CN1C(=O)[C@@H](NC(=O)[C@@H](NC(=O)c1cnccn1)C1CCCCC1)C(C)(C)C)C(=O)C(=O)N[C@@H](C)CC | Huh7 |  |  | replicon | 0.89 µM
CCCCCCCCCCCCCCCCNc1nc(=O)c2nc(Br)n(Cc3ccc(OC)cc3)c2c(=O)[nH]1 | Huh7 |  |  | replicon | <10 µM
O=C(NCc1ccc([N+](=O)[O-])cc1)c1nc2ccccc2c(=O)n1O | Ava5 | 1b |  | replicon | 50.8 µM
Nc1nc(N2CCOCC2)c2cc(-c3ccc(Cl)cc3)ccc2n1 | Huh7 |  |  |  | 0.3–1 µM
CC1(C)CCc2c(C(=O)OCc3ccc(Cl)cc3)c(O)c3ccccc3c2O1 | Huh7 | GT1b |  | PCR | 5 µg/mL
CCN(CC)c1ccc(C2Nc3cc(C(=O)c4ccccc4)ccc3NC3=C2C(=O)CC(C)(C)C3)cc1 | Huh7 |  |  | replicon | 22.9 µM
COc1ccc2c(O[C@@H]3C[C@H]4C(=O)N[C@]5(C(=O)O)C[C@H]5/C=C\CCCCC[C@H](NC(=O)OC5CCCC5)C(=O)N4C3)cc(-c3csc(NC(C)C)n3)nc2c1 | Huh7 | genotype 1b |  | replicon | 0.003 µM
CCCCCCCCCCOC(=O)/C=C/c1ccc(O)c(O)c1 | Huh7 | 2a |  | luciferase | 5.9 µM
CC(C)C(=O)N1C(=O)C2(CCC2)[C@@H]2[C@@H]1CCN2C(=O)[C@@H](NC(=O)NC1CCCC1)C(C)C |  | 1b |  | luciferase / reporter gene | 0.301 µM
CCCC(NC(=O)[C@@H]1C[C@@H](OC(=O)N2CCc3ccccc3C2)CN1C(=O)[C@H](NC(=O)[C@H](NC(=O)c1cnccn1)C(C)C)C(C)C)C(=O)C(=O)NC1CCC1 | Huh7 |  |  |  | 10.2 µM
CC1(C)CCc2c(C(=O)OCc3ccccc3)c(O)c3ccccc3c2O1 | Huh7 | GT1b |  | PCR | 0.5–1 µg/mL
CCC(NC(=O)[C@@H]1C[C@@H](OCc2ccccc2)CN1C(=O)[C@H](NC(=O)[C@H](NC(=O)c1cnccn1)C(C)C)C(C)C)C(=O)C(=O)N[C@@H](C)c1ccccc1 | Huh7 |  |  |  | 4.8 µM
C[C@@H]1O[C@H](n2cnc3c(N)ncnc32)CC1(CO)CO |  | NK-R2AN |  | replicon | 19 µM
COC(=O)c1c2c(c3ccccc3c1O)OC(C)(C)CC2 | Huh7 | GT1b |  | PCR | 1–2 µg/mL
COC(=O)N[C@H](C(=O)N1CCC[C@H]1c1ncc(-c2ccc(-c3ccc(-c4cnc([C@@H]5CCCN5C(=O)[C@@H](NC(=O)OC)C(C)C)[nH]4)cc3)cc2)[nH]1)C(C)C |  | 1b |  | replicon | 4.2 pM
CC(=O)Nc1ccc(-c2ccc3nc(N)nc(N4CCOCC4)c3c2)cc1 | Huh7 |  |  |  | 1–10 µM
NC(=S)Nc1cccc(-c2ccccc2)c1 | Huh7 |  |  | replicon | <1 µM
O=C(NCCc1ccccc1)c1nc2ccccc2c(=O)n1O | Ava5 | 1b |  | replicon | 28.7 µM
NC(=S)Nc1ccc(N2CCC(c3ccccc3)CC2)c(F)c1 | Huh7 |  |  | replicon | <1 µM
OC[C@H]1O[C@@H](n2cnc3c(/C=C/N4CCSC4)ncnc32)[C@H](O)[C@@H]1O | Huh7 (MT-4) | 1b | genotype 1b | replicon | 3 µM

Repeating the final 7 entries:

| SMILES | cells | strain or isolate | conditions | method | value |
|---|---|---|---|---|---|
| COC(=O)c1c2c(c3ccccc3c1O)OC(C)(C)CC2 | Huh7 | GT1b |  | PCR | 1–2 µg/mL |
| COC(=O)N[C@H](C(=O)N1CCC[C@H]1c1ncc(-c2ccc(-c3ccc(-c4cnc([C@@H]5CCCN5C(=O)[C@@H](NC(=O)OC)C(C)C)[nH]4)cc3)cc2)[nH]1)C(C)C |  | 1b |  | replicon | 4.2 pM |
| CC(=O)Nc1ccc(-c2ccc3nc(N)nc(N4CCOCC4)c3c2)cc1 | Huh7 |  |  |  | 1–10 µM |
| NC(=S)Nc1cccc(-c2ccccc2)c1 | Huh7 |  |  | replicon | <1 µM |
| O=C(NCCc1ccccc1)c1nc2ccccc2c(=O)n1O | Ava5 | 1b |  | replicon | 28.7 µM |
| NC(=S)Nc1ccc(N2CCC(c3ccccc3)CC2)c(F)c1 | Huh7 |  |  | replicon | <1 µM |
| OC[C@H]1O[C@@H](n2cnc3c(/C=C/N4CCSC4)ncnc32)[C@H](O)[C@@H]1O | Huh7 (MT-4) | 1b | genotype 1b | replicon | 3 µM |